Changes are numbered by the printed parent chain. Construct, isoform or probe ends are uncertain for at least one entry. Protein sequences can lack the tags named with them.
How the values were obtained:
Test in all cases: EMSA
Details in all cases: 20 mM Tris-HCl pH 7.5, 100 mM NaCl, 2 mM EDTA, room temperature 20 min, recombinant protein, protein details: 6xHis (pET28a), probe letters rebuilt from the primers and the genome
[1] = molecular target: T1, OxyS-C113A (Mycobacterium tuberculosis) (UniProt L7N677)
T1 sequence (looked up, limits assumed): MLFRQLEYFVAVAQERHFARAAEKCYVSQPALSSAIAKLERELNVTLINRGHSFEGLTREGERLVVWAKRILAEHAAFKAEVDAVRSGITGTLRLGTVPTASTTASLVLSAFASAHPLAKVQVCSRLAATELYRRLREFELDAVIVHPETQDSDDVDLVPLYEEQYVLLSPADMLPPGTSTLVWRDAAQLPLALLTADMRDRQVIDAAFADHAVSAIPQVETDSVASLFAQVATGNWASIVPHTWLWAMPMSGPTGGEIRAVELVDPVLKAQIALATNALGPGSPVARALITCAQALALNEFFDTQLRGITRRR

[2] = molecular target: T2, OxyS-C124A (Mycobacterium tuberculosis) (UniProt L7N677)
T2 sequence (looked up, limits assumed): T1 sequence (looked up, limits assumed) with A113C, C124A

[3] = molecular target: T3, OxyS-C25A (Mycobacterium tuberculosis) (UniProt L7N677)
T3 sequence (looked up, limits assumed): T1 sequence (looked up, limits assumed) with C25A, A113C

[4] = molecular target: T4, OxyS-C293A (Mycobacterium tuberculosis) (UniProt L7N677)
T4 sequence (looked up, limits assumed): T1 sequence (looked up, limits assumed) with A113C, C293A

Measured: binding result

AGCATTCCTTCCAGGAGTTGGTGTTATCGGGCTGTGATCACGGATGTGATCGCGAAGTGTCGGATATCGAACAATCAGGACATAGACCCCAGTAGATGACCTCCGCCTCGTCCAACAGGAAGCCGTTATGGTCCGAGGCCGTCAGACAGGGTGCCTCGCCAACAGCACAGTCGACATCGGCGATAACCCCGCAAGACCGGCAGACGATGTGATGGTGGTTGTCGCCGACCCTGGACTCGTAGCGCGCGACGGAGCCCGAGGGTTGGATCTTTCGCACCAAGCCCGCGGCGGTCAGGGCATGCAGCACGTCGTACACGGCTTGCCGGGATACGTCGGGCAGCGCAAAACGC (double strand) [katGp]
binds: [1] | [2] | [3] | [3]; H2O2 (not affected), 400 nM protein | [4]
